Measured values reported in publication PMC12069340 (Frontiers in Cellular and Infection Microbiology, 2025).
Structures can show the parent of a compound that is named as a salt.

What follows are molecules tested on A/PuertoRico/8/1934 (H1N1) virus. Conditions: ratio CC50 / IC50.
Format: cell-based, influenza A virus

Row | Molecule | SI
1 | CCCN1C[C@H](CSC)C[C@@H]2c3cccc4[nH]cc(c34)C[C@H]21 [Pergolide mesylate] | >11.3
2 | Cc1cccc(C(C)c2cnc[nH]2)c1C (stereo not shown) [Medetomidine HCl] | >6.4
3 | Promethazine HCl | >8.6
4 | CN(C)[C@@H](CCOc1cccc2ccccc12)c1ccccc1 [Dapoxetine HCl] | 11.4
5 | Meclizine 2HCl | 15
6 | OC(CNCC(O)C1CCc2cc(F)ccc2O1)C1CCc2cc(F)ccc2O1 (stereo not shown) [Nebivolol] | 3.4
7 | OCc1cc(C(O)CNCCCCCCOCCCCc2ccccc2)ccc1O (stereo not shown) [Salmeterol Xinafoate] | 9.1
8 | Cc1ccc(N(CC2=NCCN2)c2cccc(O)c2)cc1 [Phentolamine Mesylate] | >80.0
9 | Cc1ccc(OCC(O)C(C)NC(C)C)c2c1CCC2 (stereo not shown) [ICI-118551] | >13.8
10 | CCCN(CCc1cccs1)[C@H]1CCc2c(O)cccc2C1 [Rotigotine] | >63.5
11 | O=C(c1ccc(OCCCc2cnc[nH]2)cc1)C1CC1 [Ciproxifan] | >57.1
12 | CN1CCCC(n2nc(Cc3ccc(Cl)cc3)c3ccccc3c2=O)CC1 (stereo not shown) [Azelastine HCl] | 6.6
13 | O=C(C[S+]([O-])Cc1ccco1)NC/C=C\COc1cc(CN2CCCCC2)ccn1 (stereo not shown) [Lafutidine] | >5.4
